Measured values from several laboratories, pooled; numbers as filed in NIAID ChemDB.

Common to all: toxicity to cultured cells; cell line: VERO; read-out: CC50

CCn is the concentration with n% toxicity to the cells.

compound,method,result
O=c1c2cnn(-c3ccccc3)c2nc2n1N=C(c1ccc(Br)cc1)CN2c1ccccc1,,100 µg/mL
CNc1nc2sc3c(c2c(=O)n1N)CCCC3,,250 µg/mL
CC(C)(C)c1ccc(CNc2ccc(N3CCOCC3)cc2)cc1,,8 µg/mL
Nc1nccc2c1ncn2[C@@H]1C=C(CO)[C@@H](O)[C@H]1O,,0.05 µg/mL
O=C(Cc1nn(Cc2ccc(Br)cc2F)c(=O)c2ccccc12)N/N=C/c1cccc(F)c1,MTT,>129.3 µM
CCCCN(C)CCNc1cc(C)nc(Nc2nc3ccc(Cl)cc3[nH]2)n1,,2.7 µg/mL
N#CCSc1nsc(-c2ccccc2)c1C#N,,10 µg/mL
CC(C)(C)c1ccc(CNc2ccccc2C2=NCCN2)cc1,,2 µg/mL
CCOC(=O)P(=O)(O)OCCOCn1cnc2c(=O)[nH]c(N)nc21,,>2646 µM
CC[n+]1c2ccc(C)cc2nc2c3ccccc3c(N)cc21.[Cl-],,1.2 µg/mL
CCOC(=O)[C@H](C)N[P@](=O)(OC[C@H]1O[C@@H](n2cnc3c(N)nc(N)nc32)[C@](C)(O)[C@@H]1O)Oc1ccccc1CCC(=O)OC(C)C,,>100 µM
O=C(O)c1[nH]c(=O)[nH]c(=O)c1F,,<4.12 µg/mL
O=c1c2cnn(-c3ccccc3)c2nc2n1N=C(c1ccc(Cl)cc1)CN2c1ccccc1,,100 µg/mL
C[C@@]1(CO)[C@H](O)CC[C@@]2(C)[C@H]1CC[C@H]1C[C@@H]3C[C@@]12CC[C@]3(O)CO,,5 µg/mL
Cc1c(CN2CCSCC2)cc(-c2ccc(F)cc2)n1-c1ccc(Cl)cc1,,8 µg/mL
COc1c(OC)c2c3c(c(-c4c(C)cc5c(C(C)C)c(OC)c(OC)c6c5c4OC6=O)c(C)cc3c1C(C)C)OC2=O,,>100 µM
CCCCC(=O)OC[C@@H]1C=C[C@H](n2cc(F)c(N)nc2=O)O1,,>100 µM
N#Cc1c(SCCCCBr)nsc1-c1ccccc1,,25 µg/mL
O=c1c2cnn(-c3ccccc3)c2nc(Nc2ccccc2)n1/N=C/c1ccc(Br)cc1,,100 µg/mL
CCOCn1c([Se]c2ccccc2)c(CC)c(=O)[nH]c1=O,,57.7 µM
CC(=O)Nc1n[n+]([O-])c2cc(C)ccc2[n+]1[O-],,0.34 µg/mL
Nc1nc(=O)n([C@@H]2C=C[C@H](CO)O2)cc1F,,9.4 µM
Cc1cc2c(C(C)C)c(O)c(O)c(/C=N/O)c2c(O)c1-c1c(C)cc2c(C(C)C)c(O)c(O)c(/C=N/O)c2c1O,,7.5 µM
C[C@]12CCC3C(CC[C@H]4C[C@@H](O)CC[C@]34C)C1C[C@@H](Br)C2=O,MTT,98.28 µM
O=c1c2cnn(-c3ccccc3)c2nc(Nc2ccccc2)n1NC(=S)Nc1ccccc1,,220 µg/mL
O=C(N=CN1CCN(c2cc3c(cc2F)c(=O)c(C(=O)O)cn3C2CC2)CC1)c1cnccn1,,>10 µg/mL
CN1C[C@H](c2ccccc2)[C@]2(CC3C=CC=CC3C2=O)[C@]12C(=O)c1cccc3cccc2c13,MTT,>62.5 µg/mL
CCOC(=O)CCc1ccccc1OP(=O)(N[C@@H](C)C(=O)OCC)OC[C@H]1O[C@@H](n2cnc3c(N)nc(N)nc32)[C@](C)(O)[C@@H]1O,,>100 µM
O=C1N(c2nncs2)CCN1[N+](=O)[O-],,86.4 µg/mL
CCOc1ccc(NC(=S)Nc2ccc(/C(C)=N/NC(=O)c3ccncc3)cc2)cc1,,144 µM
c1ccc2c(c1)nnn1c3ncccc3nc21,,9.99 µg/mL
Nn1c(Nc2ccc(Cl)cc2)nc2sc3c(c2c1=O)CCC3,,250 µg/mL
Cc1nc([N+](=O)[O-])cn1-c1ccc(Cl)cc1,,>62.5 µg/mL
O=C(NNC=NCc1ccccn1)c1ccncc1,,>10 µg/mL
C/C(=N\NC(=O)c1ccncc1)c1ccc(NC(=S)Nc2ccc(F)cc2)cc1,,>153.4 µM
Cc1cn([C@H]2C[C@H](N=[N+]=[N-])[C@@H](CO)O2)c(=O)[nH]c1=O,,29 µM
Cc1ccc(NCCNCCO)c2c(=O)c3cc(O)ccc3sc12,,0.81 µg/mL
O=C(Cc1nn(Cc2ccc(Br)cc2F)c(=O)c2ccccc12)N/N=C/c1cccc(Br)c1,MTT,>114.9 µM
Cc1nc(-c2ccc(Cl)cc2)sc1-c1csc(Cc2ccc(F)cc2)n1,sulforhodamine,>80 µM
CC1=C(C)C(CO)(CO)C[C@H]1n1ccc(N)nc1=O,,>100 µg/mL
Cc1cn([C@H]2C[C@H](N=[N+]=[N-])[C@@H](CO)O2)c(=O)[nH]c1=O,,23 µM
O=c1c2cnn(-c3ccccc3)c2nc2n(-c3ccccc3)c(=S)[nH]n12,,220 µg/mL
COc1ccc(C[C@H]2NC[C@H](O)[C@H]2OC(C)=O)cc1,MTT,45 µM
CSc1nsc(-c2ccccc2)c1C(=O)O,,500 µg/mL
CCOC(=O)CCc1ccccc1O[P@](=O)(N[C@@H](C)C(=O)OC(C)C)OC[C@H]1O[C@@H](n2cnc3c(N)nc(N)nc32)[C@](C)(O)[C@@H]1O,,>100 µM
O=C1Nc2c(Cl)cc(Cl)cc2C12Nc1ccccc1S2,,20 µg/mL
CCc1cn([C@H]2C[C@H](N)[C@@H](CO)O2)c(=O)[nH]c1=O,,>2000 µM
OC(c1cc(-c2ccc(C(F)(F)F)cc2)nc(C(F)(F)F)c1)C1CCCCN1,,1.39 µg/mL
COc1ccccc1-c1csc(Nc2ccccc2C(F)(F)F)n1,luminescence,54 µM
O=C(NC1N=C(c2ccccc2)c2cc(Cl)ccc2NC1=O)c1ccco1,,1.5 µM
Nc1nccc2c1ncn2[C@@H]1C[C@H](CO)[C@@H](O)[C@H]1O,,0.33 µg/mL
COc1cccc(CC(=O)NC2N=C(c3ccccc3)c3ccccc3NC2=O)c1,,3 µM
Cc1oc2c(C)c3oc(=O)cc(C)c3cc2c1CCl,,3.64 µg/mL
O=C(NC=Nc1ccc(C(=O)O)c(O)c1)c1cnccn1,,>10 µg/mL
Cc1cc(C)c2cc(C(=O)NC3CCCCCC3)[nH]c2c1,resazurin,>200 µM
CO[C@H]1/C=C/O[C@@]2(C)Oc3c(C)c(O)c4c(O)c(c(/C=N/N5CCN(C)CC5)c(O)c4c3C2=O)NC(=O)/C(C)=C\C=C\[C@H](C)[C@H](O)[C@@H](C)[C@@H](O)[C@@H](C)[C@H](OC(C)=O)[C@@H]1C,sulforhodamine,>80 µM
O=C(Cc1nn(Cc2ccc(Br)cc2F)c(=O)c2ccccc12)N/N=C/c1ccc(F)cc1,MTT,>129.3 µM
NNC(=O)CCC(NC(=O)OCc1ccccc1)C(=O)NN,,7.01 µg/mL
C/C(=N\NC(=O)Cc1nn(Cc2ccc(Br)cc2F)c(=O)c2ccccc12)c1ccc(Br)cc1,MTT,111.9 µM
COc1ccc(NC(=S)Nc2ccc(/C(C)=N/NC(=O)c3ccncc3)cc2)cc1,,>149 µM
N#Cc1c(N)n[nH]c1-c1ccc(F)cc1,,30 µg/mL
O=C(NC(=O)C1N=C(c2ccccc2)c2ccccc2NC1=O)c1ccno1,,3 µM
NC(=O)c1cn([C@@H]2C[C@H](CCP(=O)(O)O)C[C@H]2O)nn1,,>100 µM
Cc1c(CN2CCSCC2)cc(-c2ccccc2)n1-c1ccc(F)cc1,,8 µg/mL
CCOCn1c([Se]c2ccccc2)cc(=O)[nH]c1=O,,28 µM
CC[CH2][Sn]([Cl])([Br])[CH2]CC.c1cnc2c(c1)ccc1cccnc12,,0.14 µg/mL
CC1=C(C)C(CO)(CO)C[C@H]1n1cnc2c(N)ncnc21,,>100 µg/mL
O=C(NCCCl)N1CCC(CN=c2cc3n(-c4ccc(Cl)cc4)c4ccccc4nc-3cc2Nc2ccc(Cl)cc2)CC1,,0.6 µg/mL
COC(=O)c1cn([C@@H]2C[C@H](CCP(=O)(O)O)C[C@H]2O)nn1,,>100 µM
CCOC(=O)n1c(=O)nc2c3c(ncn21)Oc1c(c(-c2ccccc2)nn1-c1ccccc1)C3c1ccc(Cl)cc1,,1.56 µg/mL
Cc1nc(-c2ccc(F)cc2)sc1-c1csc(-c2ccc(F)c(Cl)c2)n1,sulforhodamine,>80 µM
O=C(Cc1nn(Cc2ccc(Br)cc2F)c(=O)c2ccccc12)N/N=C/c1ccc(Br)cc1,MTT,>114.9 µM
CCCSc1nsc(-c2ccccc2)c1C(=O)O,,500 µg/mL
CC(=O)O[C@H]1CC[C@]2(C)C3CC[C@]4(C)C(=O)CCC4C3CC[C@H]2C1,MTT,361 µM
CCOC(=O)CCc1ccccc1O[P@@](=O)(N[C@@H](C)C(=O)OC(C)C)OC[C@H]1O[C@@H](n2cnc3c(N)nc(N)nc32)[C@](C)(O)[C@@H]1O,,>100 µM
c1ccc(C2=NCCN2)c(NCc2cccc3ccccc23)c1,,4 µg/mL
CN1C[C@H](c2ccc(N3CCOCC3)cc2)[C@]2(CC3C=CC=CC3C2=O)[C@]12C(=O)c1cccc3cccc2c13,MTT,>62.5 µg/mL
Nc1ccn([C@@H]2CS[C@H](CO)O2)c(=O)n1,,>100 µM
CN(C)c1ccc(/C=N/NC(=O)Cc2nn(Cc3ccc(Br)cc3F)c(=O)c3ccccc23)cc1,MTT,122.9 µM
NC(=O)c1nnn([C@@H]2C[C@H](CO)C[C@H]2O)c1N,,>100 µM
C[C@]12CCC3C(CC[C@H]4C[C@@H](O)CC[C@]34C)C1C=CC2=O,MTT,220 µM
Cc1nc(-c2ccccc2)sc1-c1csc(-c2ccc(Br)cc2)n1,sulforhodamine,>80 µM
[Cl][Sn]([Cl])([c]1cccs1)[c]1cccs1.c1cnc2c(c1)ccc1cccnc12,,2.2 µg/mL
FC(F)(F)c1ccccc1Nc1nc(-c2ccccn2)cs1,luminescence,30 µM
NCC[C@H](O)C(=O)N[C@@H]1C[C@H](N)[C@@H](O[C@H]2O[C@H](CN)[C@@H](O)[C@H](O)[C@H]2O)[C@H](O)[C@H]1O[C@H]1O[C@H](CO)[C@@H](O)[C@H](N)[C@H]1O,MTT,>62.5 µg/mL
CC(=O)Oc1c(OC(C)=O)c2c3c(c(-c4c(C)cc5c(C(C)C)c(OC(C)=O)c(OC(C)=O)c6c5c4OC6OC(C)=O)c(C)cc3c1C(C)C)OC2OC(C)=O,,4.1 µM
c1ccc(Nc2nc(-c3nccs3)cs2)nc1,luminescence,31 µM
CN(C)c1nsc(-c2ccccc2)c1C#N,,15 µg/mL
O=C(N=Nc1c(Cl)c(O)c2ccccc2c1O)C(F)(F)F,,4.46 µg/mL
Cc1cccc(C)c1Nc1nnc(-c2ccccn2)s1,luminescence,60 µM
CCOC(=O)C(=O)Nc1nc2c(s1)C(=O)c1ccccc1C2=O,,2 µg/mL
O=C(NC(=O)C1N=C(c2ccccc2)c2ccccc2NC1=O)c1ccsc1,,2 µM
C=C(C)C1CC2=C(O1)C(=O)c1ccccc1C2=O,,0.61 µg/mL
COc1cc(O)c(CC=C(C)C)c2c1C(=O)CC(c1ccc(O)cc1)O2,,55 µg/mL
CCOC(=O)C(=O)N=Nc1nc2c(O)c3ccccc3c(O)c2s1,,9.8 µg/mL
COC(=O)c1c(SC)nsc1-c1ccccc1,,100 µg/mL
C[C@H](N)C(=O)N[C@@H]1[C@H]2C(=C(O)C[C@@H](O)[C@@H]2O)C(=O)O[C@]1(C)C(Cl)Cl,,<0.41 µg/mL
O=c1c2cnn(-c3ccccc3)c2nc(Nc2ccccc2)n1/N=C/c1ccc(F)cc1,,150 µg/mL

Again, the opening 12 rows:

compound,method,result
O=c1c2cnn(-c3ccccc3)c2nc2n1N=C(c1ccc(Br)cc1)CN2c1ccccc1,,100 µg/mL
CNc1nc2sc3c(c2c(=O)n1N)CCCC3,,250 µg/mL
CC(C)(C)c1ccc(CNc2ccc(N3CCOCC3)cc2)cc1,,8 µg/mL
Nc1nccc2c1ncn2[C@@H]1C=C(CO)[C@@H](O)[C@H]1O,,0.05 µg/mL
O=C(Cc1nn(Cc2ccc(Br)cc2F)c(=O)c2ccccc12)N/N=C/c1cccc(F)c1,MTT,>129.3 µM
CCCCN(C)CCNc1cc(C)nc(Nc2nc3ccc(Cl)cc3[nH]2)n1,,2.7 µg/mL
N#CCSc1nsc(-c2ccccc2)c1C#N,,10 µg/mL
CC(C)(C)c1ccc(CNc2ccccc2C2=NCCN2)cc1,,2 µg/mL
CCOC(=O)P(=O)(O)OCCOCn1cnc2c(=O)[nH]c(N)nc21,,>2646 µM
CC[n+]1c2ccc(C)cc2nc2c3ccccc3c(N)cc21.[Cl-],,1.2 µg/mL
CCOC(=O)[C@H](C)N[P@](=O)(OC[C@H]1O[C@@H](n2cnc3c(N)nc(N)nc32)[C@](C)(O)[C@@H]1O)Oc1ccccc1CCC(=O)OC(C)C,,>100 µM
O=C(O)c1[nH]c(=O)[nH]c(=O)c1F,,<4.12 µg/mL

Blank or dashed fields: not listed here. Neighbouring rows are from separate reports.